# According to publication PMC3784471 (PLoS Pathogens, 2013):
# B1: Hendra virus nucleocapsids (full-length nucleoprotein N, residues 1-532, assembled on bacterial RNA) (complex)
# chain: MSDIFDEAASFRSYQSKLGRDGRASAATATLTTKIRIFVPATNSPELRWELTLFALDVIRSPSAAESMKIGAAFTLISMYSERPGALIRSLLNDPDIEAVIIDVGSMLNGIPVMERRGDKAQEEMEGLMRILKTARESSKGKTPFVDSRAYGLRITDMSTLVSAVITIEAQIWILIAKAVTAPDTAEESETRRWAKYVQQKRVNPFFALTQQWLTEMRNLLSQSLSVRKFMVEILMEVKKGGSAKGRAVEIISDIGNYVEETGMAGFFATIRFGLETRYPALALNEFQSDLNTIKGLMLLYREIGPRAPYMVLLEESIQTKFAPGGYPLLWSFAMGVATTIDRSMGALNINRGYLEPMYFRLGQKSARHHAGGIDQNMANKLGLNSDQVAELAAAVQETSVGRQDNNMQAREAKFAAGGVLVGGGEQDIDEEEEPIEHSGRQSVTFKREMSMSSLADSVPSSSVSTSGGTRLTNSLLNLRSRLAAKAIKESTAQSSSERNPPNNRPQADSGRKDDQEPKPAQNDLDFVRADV
# Target: the molecule itself
# Assay: negative staining transmission electron microscopy
protein,measurement,value
B1,binding result,binds
